Test results reported in ChEMBL document CHEMBL4145559 (ACS Med Chem Lett, 2018).
In brackets after ≈: the same amount, converted by molar mass.

Assays:
Yersinia pestis [1] = assay: Antimicrobial activity against Yersinia pestis KIM6+ harboring arabinose inducible type 1 signal peptidase in presence of 2% arabinose
Yersinia pestis [2] = assay: Antimicrobial activity against Yersinia pestis KIM6+ harboring arabinose inducible type 1 signal peptidase

Structure (SMILES) | MIC (Yersinia pestis [1]) [µg/mL] | MIC (Yersinia pestis [2]) [µg/mL]
C[C@@H](O)[C@H]1C(=O)N2C(C(=O)O)=C(S[C@H]3CCNC3)S[C@H]12 | 32 | 
C[C@@H](O)[C@H]1C(=O)N2C(C(=O)O)=C(SCCNC=N)C[C@H]12 |  | 1 (≈ 3.34 µM)
C[C@@H](O)[C@H]1C(=O)N2C(C(=O)O)=C(SCCNC=N)S[C@H]12 | 128 | 
CCCCCCCCCCCCCCCC(=O)N(C)[C@H](CO)C(=O)N[C@H](C)C(=O)NCC(=O)N(C)[C@@H]1C(=O)N[C@@H](C)C(=O)N[C@H](C(=O)O)Cc2ccc(O)c(c2)-c2cc1ccc2O | 128 | 4 (≈ 4.54 µM)
C[C@@H](O)[C@H]1C(=O)N2C(C(=O)O)=C(SCCOC(N)=O)S[C@H]12 [Sch-34343] | 64 | 
C[C@@H](O)[C@H]1C(=O)N2C(C(=O)O)=C(SCCN)S[C@H]12 | 128 | 
C[C@@H](O)[C@H]1C(=O)N2C(C(=O)O)=C(S[C@@H]3CCNC3)S[C@H]12 | 128 | 
C[C@@H](O)[C@H]1C(=O)N2C(C(=O)O)=C(CCc3ccccn3)S[C@H]12 | 64 | 
C[C@@H](O)[C@H]1C(=O)N2C(C(=O)O)=C(SCCO)S[C@H]12 | 128 | 
